PubChem BioAssay AID504761 | Drosophila RNAi Screening Center – 2011
Test: 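Genome-wide fly cell screen for genes dengue virus requires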 (primary screen). System: D.Mel-2 cells from Drosophila. Reagent: long dsRNA against Drosophila genes. Treatment: infection with dengue virus type 2; dose and infection time not stated. Read-out: 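Cells stained for dengue envelope protein and imaged; percent of infected cells per well on duplicate plates, ranked by infection, with stained nuclei counted for cell number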. Scale: infection score: higher = more virus-infected cells; cell count: higher = more cells in the well. Active means: 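Very low infection ranking in both replicate wells (chance probability at most 0.065), then a retest showing infection dropped 1.5-fold or more at p below 0.05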. Calls: active = confirmed: knock-down lowers infection; inactive = not picked or not confirmed.
The deposit covers about 22,000 reagents; this is a random part of those that have a named target and a result. Over the whole deposit, 116 (0.52%) are marked active. 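Calls depend on retest data that are not deposited; infection was ranked per plate without normalising between plates; the unit of the infection score is not given.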 Raw values vary from plate to plate and are shown uncorrected. A plus sign joins genes that one reagent is predicted to hit. Not all columns of the deposit are shown. The record does not give: the amount of reagent, the time to read-out.

For ppk7 [DRSC03236], the entry reads infection score, replicate 1 = 1.66; cell count, replicate 1 = 6278; inactive.
Depletion of CG15160 [DRSC02461] came out at: infection score, replicate 1 = 14.8; cell count, replicate 1 = 5226; inactive.
With knock-down of CG15160 [DRSC27129], the record shows infection score, replicate 1 = 13.7; cell count, replicate 1 = 6323; inactive.
With knock-down of Pdzd8 [DRSC19355] the results were infection score, replicate 1 = 5.53; cell count, replicate 1 = 5586; inactive.
Against Pdzd8 [DRSC23702], the entry reads infection score, replicate 1 = 9.05; cell count, replicate 1 = 6080; inactive.
With knock-down of CG10208 [DRSC14211], the record shows infection score, replicate 1 = 1.23; cell count, replicate 1 = 6012; inactive.
Knock-down of Tcs4 [DRSC19587] came out at: infection score, replicate 1 = 3.8; cell count, replicate 1 = 6291; inactive.
Against Tcs4 [DRSC28855] the deposit lists infection score, replicate 1 = 0.28; cell count, replicate 1 = 353; inactive.
With knock-down of prage [DRSC17957], the screen gave cell count, replicate 1 = 307; inactive.
prage [DRSC18490] gave cell count, replicate 1 = 339; inactive.
With knock-down of prage [DRSC18497] the results were cell count, replicate 1 = 362; inactive.
Jon99Ciii + Jon99Fi + Jon99Fii + 1 more [DRSC29104] scored infection score, replicate 1 = 16.3; cell count, replicate 1 = 4491; inactive.
fs(2)ltoPP43 [DRSC02067] scored infection score, replicate 1 = 12.1; cell count, replicate 1 = 5800; inactive.
For fs(2)ltoPP43 [DRSC24493], the values are infection score, replicate 1 = 3.32; cell count, replicate 1 = 5745; inactive.
Against sau [DRSC00694], the entry reads infection score, replicate 1 = 5.63; cell count, replicate 1 = 5312; inactive.
With knock-down of CG14507 [DRSC14859] the results were infection score, replicate 1 = 2.58; cell count, replicate 1 = 6712; inactive.
With knock-down of CG14507 [DRSC27958], the screen gave infection score, replicate 1 = 11.1; cell count, replicate 1 = 4146; inactive.
Depletion of ari-2 [DRSC04672] gave: infection score, replicate 1 = 26.1; cell count, replicate 1 = 5581; inactive.
ari-2 [DRSC27896] gave infection score, replicate 1 = 3.88; cell count, replicate 1 = 7013; inactive.
Knock-down of CG14126 (retired record) [DRSC10130] came out at: infection score, replicate 1 = 1.72; cell count, replicate 1 = 6518; inactive.
CG14126 (retired record) [DRSC28859] showed infection score, replicate 1 = 3.22; cell count, replicate 1 = 869; inactive.

2 entries from above, reformatted:
{"target gene": "ari-2", "amplicon": "DRSC04672", "infection score, replicate 1": 26.1, "cell count, replicate 1": 5581, "call": "inactive"}
{"target gene": "ari-2", "amplicon": "DRSC27896", "infection score, replicate 1": 3.88, "cell count, replicate 1": 7013, "call": "inactive"}
